Reference: ChEMBL document CHEMBL1137295, “Discovery of HIV-1 protease inhibitors with picomolar affinities incorporating N-aryl-oxazolidinone-5-carboxamides as novel P2 ligands” (J Med Chem, 2006)
pKi: −log10 of the molar value.

Tests used:
[1] = biological target: Human immunodeficiency virus type 1 protease (Human immunodeficiency virus 1, UniProt Q72874, D30N/L63P/N88D); experiment: Inhibition of HIV1 protease D30N/L63P/N88D mutant
Summary of the method: (§1)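 FRET cleavage of Arg-Glu(EDANS)-[…]DABCYL)-Arg, 1 µM. Protease desalted into 20 mM sodium acetate pH 5, about 50 nM apparent by A280. Preincubated with inhibitor in DMSO 20-30 min at room temperature. Buffer 0.1 M NaOAc, 1 M NaCl, 1 mM EDTA, 1 mM DTT, 2% DMSO, 1 mg/mL BSA, pH 4.7. Read 340/490 nm, 30 °C, ~10 min. Ki by nonlinear fit of initial velocity versus inhibitor concentration.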

[2] = biological target: Human immunodeficiency virus type 1 protease (Human immunodeficiency virus 1, UniProt Q72874, Q7K); experiment: Inhibition of wild type HIV1 protease Q7K mutant; summary of the method: as §1
[3] = biological target: Human immunodeficiency virus type 1 protease (Human immunodeficiency virus 1, UniProt Q72874, G48V/I54V/L10I/L63P/V82A); experiment: Inhibition of HIV1 protease L10I/G48V/I54V/L63P/V82A mutant; summary of the method: as §1
[4] = biological target: Human immunodeficiency virus type 1 protease (Human immunodeficiency virus 1, UniProt Q72874, A71V/G73S/I84V/L10I/L63P/L90M); experiment: Inhibition of HIV1 protease L10I/L63P/A71V/G73S/I84V/L90M mutant; summary of the method: as §1

Compound: CC(C)CN(C[C@@H](O)[C@H](Cc1ccccc1)NC(=O)O[C@H]1CCOC1)S(=O)(=O)c1ccc(N)cc1
- pKi [1]: 9.68
- pKi [2]: 10.00
- pKi [3]: 9.82
- pKi [4]: 8.85
